Measurements reported in PubChem BioAssay AID504761 (Drosophila RNAi Screening Center, 2011)
In all, the deposit lists about 22,000 reagents; this is an unselected part of those with a known target gene and a result. Of all reagents, 116 (0.52%) got an active call. 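Calls depend on retest data that are not deposited; infection was ranked per plate without normalising between plates; the unit of the infection score is not given.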 Raw values vary from plate to plate and are shown uncorrected. Names joined by + are all predicted targets of the reagent. Further read-outs or replicates are left out here. The record does not give: the amount of reagent, the time to read-out.

Aim: 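Fly genes whose silencing reduces dengue virus type 2 infection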 (primary screen)
System: D.Mel-2 cells from Drosophila
Knock-down reagent: long dsRNA against Drosophila genes
Treatment: infection with dengue virus type 2; dose and infection time not stated
Measurement: 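Per well on two replicate plates, imaging gave the percent of cells positive for viral envelope protein, ranked by infection, and a nuclear count of cells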
Direction: infection score: higher = more virus-infected cells; cell count: higher = more cells in the well
Active means: 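Low infection ranks in the two replicates (chance level up to 0.065) followed by a retest with a 1.5-fold or larger significant decrease, p below 0.05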
Calls: active = confirmed: knock-down lowers infection; inactive = not picked or not confirmed

Gene	amplicon	infection score, replicate 1	infection score, replicate 2	cell count, replicate 1	Call
PMCA (GeneID 43787)	DRSC17114	1.87	1.43	5892	inactive
PMCA (GeneID 43787)	DRSC17154	2.7	2.76	6002	inactive
nac (GeneID 40981)	DRSC16520	14.4	5.2	5821	inactive
RfC38 (GeneID 34550)	DRSC29807	8.99	26.9	6295	inactive
beat-Vb (GeneID 41583)	DRSC12940	8.89	0.93	5533	inactive
beat-Vb (GeneID 41583)	DRSC14844	13.4	2.5	6230	inactive
beat-Vb (GeneID 41583)	DRSC14845	2.47	3.25	6393	inactive
Vamp7 (GeneID 36015)	DRSC06599	24.5	9.4	5766	inactive
drosha (GeneID 35747)	DRSC07607	11.1	31.1	5031	inactive
bbc (GeneID 36496)	DRSC06958	2.36	6.74	6346	inactive
bbc (GeneID 36496)	DRSC22309	2.06	7.34	6028	inactive
Dpit47 (GeneID 35565)	DRSC04985	2.41	5.8	6597	inactive
Dpit47 (GeneID 35565)	DRSC28888	14.7	3.27	1476	inactive
CG31909 (GeneID 319020)	DRSC22180	0.71	1.46	6516	inactive
CG31909 (GeneID 319020)	DRSC26278	11.9	14.1	6541	inactive
dyw (GeneID 31252)	DRSC18228	1.5	2.5	466	inactive
dyw (GeneID 31252)	DRSC29300		15.2	441	inactive
CG3662 (GeneID 33260)	DRSC00626	3.94	4.39	6527	inactive
Edg91 (GeneID 42117)	DRSC16657	0.81	0.25	6174	inactive
CAH5 (GeneID 50102)	DRSC15372	9.67	1.07	5337	inactive
Hr96 (GeneID 42993)	DRSC16707	5.86	5.51	5868	inactive
Oatp33Ea (GeneID 34660)	DRSC02859	15.3	16.8	6403	inactive
Oatp33Ea (GeneID 34660)	DRSC26461	5.28	5.68	6633	inactive
rumpel (GeneID 31674)	DRSC18436	1.79	9.32	6542	inactive
Cp15 (GeneID 38999)	DRSC11118	1.65	5.97	6590	inactive
Cp15 (GeneID 38999)	DRSC28629	17.2	10.7	6258	inactive
CG30340 (GeneID 246550)	DRSC05167	1.68	1.77	5839	inactive
CG5550 (GeneID 36883)	DRSC06943	8.9	11.8	7064	inactive
CG5550 (GeneID 36883)	DRSC29735	12.9	4.46	6688	inactive
ppk12 (GeneID 37566)	DRSC04086		2.27	481	inactive
Sbds (GeneID 38749)	DRSC10992	7.36	23.9	1563	inactive
Phlpp (GeneID 35178)	DRSC02065		7.57	476	inactive
Phlpp (GeneID 35178)	DRSC22808	0.89	9.44	6049	inactive
rtv (GeneID 32056)	DRSC19541	1.34	1.35	6260	inactive
inc (GeneID 31110)	DRSC17954	3.35	10.6	6886	inactive
inc (GeneID 31110)	DRSC18512	1.25	2.65	6379	inactive
inc (GeneID 31110)	DRSC28898	26.3	17.5	4952	inactive
CG34461 (GeneID 5740547)	DRSC10767	0.42	5.3	6261	inactive
CG31835 + CG42585	DRSC01412	4.47	1.58	5546	inactive

Sorted by “infection score, replicate 2” (lowest first): some entries from above.
Gene	amplicon	infection score, replicate 1	infection score, replicate 2	cell count, replicate 1	Call
ppk12 (GeneID 37566)	DRSC04086		2.27	481	inactive
CG5550 (GeneID 36883)	DRSC29735	12.9	4.46	6688	inactive
Sbds (GeneID 38749)	DRSC10992	7.36	23.9	1563	inactive
